This is an account of results in paper doi:10.1101/2021.04.08.438924 (bioRxiv, 2021).

The test deals with T1, FLAG-tagged full-length CLEC4G, affinity-purified (human, UniProt Q6UXB4 1-293).
T1 sequence: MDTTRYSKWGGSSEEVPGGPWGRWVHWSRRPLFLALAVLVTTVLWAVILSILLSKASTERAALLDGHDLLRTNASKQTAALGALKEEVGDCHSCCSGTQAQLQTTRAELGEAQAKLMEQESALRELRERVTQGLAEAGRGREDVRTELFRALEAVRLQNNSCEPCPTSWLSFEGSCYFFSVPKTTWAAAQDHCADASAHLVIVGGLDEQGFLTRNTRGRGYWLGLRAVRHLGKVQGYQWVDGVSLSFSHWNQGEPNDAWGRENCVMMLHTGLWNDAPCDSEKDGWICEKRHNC
In words: pull-down.

B1: SARS-CoV-2 NTD ([…]) with a C-terminal His tag (domain or fragment)
chain: not shown
For the molecule B1, the binding result is “binds”.
